Test results reported in BindingDB's records for 15755666.

Biological target: Neuraminidase (Influenza A virus (strain A/Tern/Australia/G70C/1975 H11N9), UniProt P03472)
Assay: ASSAY_NAME: Neuraminidase Inhibition Assay DESCRIPTION: A standard fluorimetric assay was used to measure influenza virus neuraminidase activity. The substrate 2 -(4-methylumbelliferyl)-alpha-D-acetylneuraminic acid is cleaved by neuraminidase to yield a fluorescent product that can be quantified. Fluorescence was read using an Aminco-Bowman fluorescence spectrophotometer (excitation, 360 nm; emis
Conditions: pH 6.5

CC(=O)Nc1c(CCO)cc(C(=O)O)cc1N=C(N)N
IC50: 400 µM

CCC(CC)Oc1c(N=C(N)N)cc(C(=O)O)cc1N=C(N)N
IC50: 3 µM

CC(=O)Nc1cnc(C(=O)O)cc1N
IC50: 70 µM

CC(=O)Nc1ccc(C(=O)O)nc1
IC50: 2000 µM

CC(=O)Nc1c(N=C(N)N)cc(C(=O)O)cc1C(O)C(O)CO (centres undefined)
IC50: > 100 µM

CC(=O)Nc1ccc(C(=O)O)nc1N
IC50: 3000 µM

CS(=O)(=O)Nc1ccc(C(=O)O)nc1
IC50: 3000 µM

CC(=O)Nc1ccc(C(=O)O)nc1N=C(N)N
IC50: 6 µM

CC(=O)Nc1c(N=C(N)N)cc(C(=O)O)cc1N=C(N)N
IC50: 10 µM

CS(=O)(=O)Nc1c(N)cc(C(=O)O)nc1N
IC50: 1000 µM

CS(=O)(=O)Nc1c(CN=O)cc(C(=O)O)cc1N=C(N)N
IC50: 80 µM

CC(=S)Nc1ccc(C(=O)O)nc1
IC50: 400 µM

CC(=O)Nc1c(N)cc(C(=O)O)nc1N=C(N)N
IC50: 4 µM

CS(=O)(=O)Nc1c(CO)cc(C(=O)O)cc1N=C(N)N
IC50: 2000 µM
